Results of unrelated studies side by side (data: NIAID ChemDB).

All rows: growth or infection tests; species: HIV-1; measure: EC50

Blank or dashed fields: not listed here. ECn: concentration that inhibits the pathogen or its effect by n%. Lines come from different laboratories, so protocols vary.

SMILES,read by,cells,conditions,strain,mutations,value
Nc1nc(N)c2ncn([C@H]3C[C@@H](OCP(=O)(O)O)CO3)c2n1,MTT / absorbance,MT-4,,IIIB,,11.17 µM
Cc1nc2ccc(CNCC[C@@]34CC[C@]5(C)[C@H](CC[C@@H]6[C@@]7(C)CC[C@H](OC(=O)[C@H]8C[C@@H](C(=O)O)C8(C)C)C(C)(C)[C@@H]7CC[C@]65C)C3=C(C(C)C)C(=O)C4)cc2[nH]1,p24 / ELISA,MT-2,,92HT599,,<1 µM
COc1cc(-c2ccc(N=Nc3ccc4c(S(=O)(=O)O)cc(S(=O)(=O)O)c(N)c4c3O)c(OC)c2)ccc1N=Nc1ccc2c(S(=O)(=O)O)cc(S(=O)(=O)O)c(N)c2c1O,,CEM,,,,7 µM
O=C1/C(=C\c2ccc(F)cc2)N(CCc2cccs2)C(=S)N1CCc1cccs1,MTT,MT-4,,IIIB,,>93.1 µg/mL
COC(=O)[C@H](C)NP(=O)(OC[C@@H]1C=C[C@H](n2cnc3c(NC4CC4)nc(N)nc32)C1)Oc1ccccc1,cytopathic effect,MT-4 + CEM,,IIIB,,0.2 µM
Cc1cn(N2CC[C@@H](CO)C2)c(=O)[nH]c1=O,,MT-4,,RF,,>100 µg/mL
Nc1c(N=Cc2ccc(C(F)(F)F)c([N+](=O)[O-])c2)cc2cccnc2c1Cl,MTT,MT-4,,IIIB,,20 µM
O=C1/C(=C\c2ccccc2)N(CCc2cccs2)C(=S)N1CCc1cccs1,MTT,MT-4,,IIIB,,>59.38 µg/mL
Cc1cc(C)cc(S(=O)(=O)c2c(C(=O)/C=C/C(N)=O)[nH]c3ccc(Cl)cc23)c1,p24,C8166,,IIIB,RT-K103N Y181C,>100 µM
Nc1ncnc2c1ncn2[C@@H]1O[C@H](COP(=O)([O-])O[C@@H]2[C@H](O)[C@@H](COP(=O)([O-])O[C@@H]3[C@H](O)[C@@H](COP([O-])(=S)O[C@@H]4[C@H](O)[C@@H](CO)O[C@H]4n4cnc5c(N)ncnc54)O[C@H]3n3cnc4c(N)ncnc43)O[C@H]2n2cnc3c(N)ncnc32)[C@@H](O)[C@H]1O,syncytia,PBL,,IIIB,,>300 µM
COc1ccc2[nH]c(=O)c(CN(Cc3cccnc3)S(=O)(=O)c3cccc4nsnc34)cc2c1,p24 / ELISA,CEM,,IIIB,,0.0199 µM
O=C1/C(=C\c2ccc(Cl)cc2Cl)N(CCc2cccs2)C(=S)N1CCc1cccs1,MTT,MT-4,,IIIB,,>67.9 µg/mL
COc1ccnc2[nH]cc(C(=O)C(=O)N3CCN(C(=O)c4ccccc4)C[C@H]3C)c12,,MT-2,,NL4-3,,0.00294 µM
Cc1cn([C@H]2C[C@H](N=[N+]=[N-])[C@@H](CO)O2)c(=O)[nH]c1=O,luciferase,293T,,,,0.03 µM
COC(=O)[C@H](C)NP(=O)(OC[C@@H]1C=C[C@H](n2cc(C)c(=O)[nH]c2=O)O1)Oc1cc(Cl)ccc1Cl,p24,PBMC,,IIIB WT,,0.001 µM
Cc1cc(-c2ccc(N=Nc3ccc4c(S(=O)(=O)O)cc(S(=O)(=O)O)c(N)c4c3O)c(C)c2)ccc1N=Nc1ccc2c(S(=O)(=O)O)cc(S(=O)(=O)O)c(N)c2c1O,,CEM,,,,20 µM
O=C(O)c1cn(Cc2ccccc2)c2ccc(Cc3cccc(Cl)c3F)c(O)c2c1=O,,C8166,,IIIB,,3.54 µM
CC(C)C1=C2[C@H]3CC[C@@H]4[C@@]5(C)CC[C@H](OC(=O)[C@H]6C[C@@H](C(=O)O)C6(C)C)C(C)(C)[C@@H]5CC[C@@]4(C)[C@]3(C)CC[C@@]2(CC(=O)NCC(C)(C)NC(=O)c2ccc(Cl)cc2O[C@H]2CCOC2)CC1=O,p24 / ELISA,MT-2,,92HT599,,<1 µM
Cc1cc(O)c(O)c(O)c(=O)c1,cytopathic effect / absorbance,CEM-SS,,RF,,>50 µM
C[C@@H]1CCO[C@H]2Cn3cc(C(=O)NCc4ccc(F)cc4F)c(=O)c(O)c3C(=O)N12,luciferase / luminescence,TZM-bl,,,I60M/L74F/V75I,0.0012 µM
COC(=O)[C@H](C)NP(=O)(OC[C@@H]1C=C[C@H](n2cc(C)c(=O)[nH]c2=O)O1)Oc1ccccc1Br,p24,PBMC,,RTMDR,RT M41L L74V T215Y V106N,0.523 µM
Cc1ccc(CNC[C@H](O)[C@@]23CC[C@]4(C)[C@H](CC[C@@H]5[C@@]6(C)CC[C@H](OC(=O)[C@H]7C[C@@H](C(=O)O)C7(C)C)C(C)(C)[C@@H]6CC[C@]54C)C2=C(C(C)C)C(=O)C3)cn1,p24 / ELISA,MT-2,,92HT599,,<1 µM
CCOC(=O)c1c(C)cc(=O)c(O)c(O)c1O,cytopathic effect / absorbance,CEM-SS,,RF,,0.77 µM
CCCOC(=O)[C@H](Cc1ccccc1)NP(=O)(CO[C@H]1CO[C@@H](n2cnc3c(NC4CC4)nc(N)nc32)C1)N[C@@H](Cc1ccccc1)C(=O)OCCC,MTT / absorbance,MT-4,,IIIB,,3.63 µM
Nc1ncnc2c1ncn2[C@H]1C=C[C@](OCP(=O)(O)O)(c2ccccc2)C1,,,,,,28.3 µM
CN(C)c1ccc(/C=C2\C(=O)N(CCc3cccs3)C(=S)N2CCc2cccs2)cc1,MTT,MT-4,,IIIB,,>34.3 µg/mL
CCCOC(=O)[C@H](Cc1ccccc1)NP(=O)(CO[C@H]1CO[C@@H](n2cc(F)c(=O)[nH]c2=O)C1)N[C@@H](Cc1ccccc1)C(=O)OCCC,MTT / absorbance,MT-4,,IIIB,,>64 µM
Nc1ccc2cc(S(=O)(=O)O)cc(O)c2c1N=Nc1ccc(NC(=O)c2ccc(C(=O)Nc3ccc(N=Nc4c(N)ccc5cc(S(=O)(=O)O)cc(O)c45)c(S(=O)(=O)O)c3)cc2)cc1S(=O)(=O)O,,CEM,,,,4 µM
C#C[C@]1(CO)O[C@@H](n2cnc3c(N)nc(F)nc32)C[C@@H]1O,,,,JR-FL,,<0.001 µM
Nc1c(C(=O)NCc2ccc(F)cc2F)c(=O)n(O)c2ncc(CCCCCCO)cc12,luciferase,293T,pseudotyped,,P142S,0.0012 µM
C=C(C)OC(=O)N1c2cc(Cl)ccc2NC(=S)C1(C)C,p24,PBL,,D34,,0.003 µM
COC(=O)[C@H](C)NP(=O)(OC[C@@H]1C=C[C@H](n2cnc3c(=O)[nH]c(N)nc32)C1)Oc1ccccc1,syncytia,CEM,,IIIB,,1.3 µM
CSC1=NS(=O)(=O)N([C@@H]2O[C@H](COC(C)=O)[C@@H](OC(C)=O)[C@H]2OC(C)=O)C(=O)N1,syncytia,CEM + CEM-SS,,IIIB,,>40 µg/mL
COC(=O)[C@H](C)NP(=O)(OC[C@@H]1C=C[C@H](n2cc(C)c(=O)[nH]c2=O)O1)Oc1c(OC)cccc1OC,p24,PBMC,,RTMDR,RT M41L L74V T215Y V106N,1.104 µM
CSC1=NS(=O)(=O)N([C@@H]2O[C@H](CO)[C@@H](O)[C@H](O)[C@H]2O)C(=O)N1,syncytia,CEM + CEM-SS,,IIIB,,>200 µg/mL
N#Cc1ccc(-c2nc3ncc(Br)cc3[nH]2)cc1,MTT,MT-4,,IIIB,,>53 µM
CC(C)c1ccccc1-c1ccc2c(=O)n(-c3ccc(Cl)c4c(NS(C)(=O)=O)nn(C)c34)c([C@H](Cc3cc(F)cc(F)c3)NC(=O)Cn3nc(C(F)F)c4c3C(F)(F)[C@@H]3C[C@H]43)nc2c1,luciferase,MT-2,,NL4-3,,0.0022 µM
Cc1cn([C@H]2C[C@H](N=[N+]=[N-])[C@@H](CO)O2)c(=O)[nH]c1=O,syncytia,C8166,,IIIB,,0.01145 µM
Cc1noc(C)c1C(=O)NCC[C@@]12CC[C@]3(C)[C@H](CC[C@@H]4[C@@]5(C)CC[C@H](OC(=O)[C@H]6C[C@@H](C(=O)O)C6(C)C)C(C)(C)[C@@H]5CC[C@]43C)C1=C(C(C)C)C(=O)C2,p24 / ELISA,MT-2,,92HT599,,<1 µM
O=C1/C(=C\c2ccc([N+](=O)[O-])cc2)N(CCc2cccs2)C(=S)N1CCc1cccs1,MTT,MT-4,,IIIB,,>85.1 µg/mL
O=[N+]([O-])c1ccc(/C=C/c2ccc(N=Nc3ccc(/C=C/c4ccc([N+](=O)[O-])cc4S(=O)(=O)O)c(S(=O)(=O)O)c3)cc2S(=O)(=O)O)c(S(=O)(=O)O)c1,,CEM,,,,7 µM
CCOP(=O)(CO[C@@]1(c2ccccc2)C[C@@H](n2cnc3c(N)ncnc32)[C@H](O)[C@@H]1O)OCC,,,,,,>100 µM
Cc1cn([C@H]2C[C@H](N=[N+]=[N-])[C@@H](CO)O2)c(=O)[nH]c1=O,MTT / absorbance,MT-4,,IIIB,,0.0075 µM
Cc1cn([C@H]2C[C@H](N=[N+]=[N-])[C@@H](CO)O2)c(=O)[nH]c1=O,ELISA,PBMC,,IIIB,,0.00707 µM
CC1=NO[C@@]2(CC[C@H](C)N3C[C@H]2n2cc(C(=O)NCc4ccc(F)cc4F)c(=O)c(OCOC(=O)CCC(C)C)c2C3=O)C1,luminescence,MT-4,,IIIB,,0.00214 µM
CC(C)C1=C2[C@H]3CC[C@@H]4[C@@]5(C)CC[C@H](OC(=O)[C@H]6C[C@@H](C(=O)O)C6(C)C)C(C)(C)[C@@H]5CC[C@@]4(C)[C@]3(C)CC[C@@]2([C@@H](O)CNC(=O)C(C)(C)NC(=O)c2ccc(N3CCN(C)CC3)cc2)CC1=O,p24 / ELISA,MT-2,,92HT599,,<1 µM
CC(=O)O[C@H]1CC[C@@]2(C)[C@@H](CC[C@@]3(C)[C@H]2CC=C2[C@@H]([C@H](C)CC/C=C(\C)C(=O)O)CC[C@@]23C)C1(C)C,syncytia,1A2,,deltaTAT/Rev MC99,,5.8 µg/mL
O=C1/C(=C\c2ccc(SC3=CC=C3)cc2)N(CCc2cccs2)C(=S)N1CCc1cccs1,MTT,MT-4,,IIIB,,102 µg/mL
CC(C)C1=C2[C@H]3CC[C@@H]4[C@@]5(C)CC[C@H](OC(=O)[C@H]6C[C@@H](C(=O)O)C6(C)C)C(C)(C)[C@@H]5CC[C@@]4(C)[C@]3(C)CC[C@@]2(CC(=O)NCc2ccc(Cl)cn2)CC1=O,p24 / ELISA,MT-2,,92HT599,,<1 µM
COc1ccc(-c2nc3ccccc3c(=O)n2NCC(=O)Nc2ccccc2)cc1,RT activity,CEM,,,,73.4 µM

7 of the rows above, restated:

SMILES,read by,cells,conditions,strain,mutations,value
COc1ccc(-c2nc3ccccc3c(=O)n2NCC(=O)Nc2ccccc2)cc1,RT activity,CEM,,,,73.4 µM
COC(=O)[C@H](C)NP(=O)(OC[C@@H]1C=C[C@H](n2cnc3c(NC4CC4)nc(N)nc32)C1)Oc1ccccc1,cytopathic effect,MT-4 + CEM,,IIIB,,0.2 µM
Cc1cn(N2CC[C@@H](CO)C2)c(=O)[nH]c1=O,,MT-4,,RF,,>100 µg/mL
Nc1nc(N)c2ncn([C@H]3C[C@@H](OCP(=O)(O)O)CO3)c2n1,MTT / absorbance,MT-4,,IIIB,,11.17 µM
O=[N+]([O-])c1ccc(/C=C/c2ccc(N=Nc3ccc(/C=C/c4ccc([N+](=O)[O-])cc4S(=O)(=O)O)c(S(=O)(=O)O)c3)cc2S(=O)(=O)O)c(S(=O)(=O)O)c1,,CEM,,,,7 µM
Nc1c(C(=O)NCc2ccc(F)cc2F)c(=O)n(O)c2ncc(CCCCCCO)cc12,luciferase,293T,pseudotyped,,P142S,0.0012 µM
CC1=NO[C@@]2(CC[C@H](C)N3C[C@H]2n2cc(C(=O)NCc4ccc(F)cc4F)c(=O)c(OCOC(=O)CCC(C)C)c2C3=O)C1,luminescence,MT-4,,IIIB,,0.00214 µM